Target: hemagglutinin (HA) of influenza A virus A/California/07/2009 (H1N1pdm) (influenza A virus A/California/07/2009 (H1N1pdm))
Assay: cell-based or functional assay

mouse MAb C179 capable of exhibiting a broad reactivity with HAs belonging to group 1
Neutralization activity (VN50 value µg/ml): 3.01 µg/mL

Source: patent publication US20160264648A1
